{"source": "paper PMC1260013", "about": "(BMC Biochemistry, 2005)", "key": {"[1]": {"tested_on": "O=C(O)CC(C(=O)O)C(O)C(=O)O", "experiment": "purified protein", "conditions": "pH 7.5; 25.0 °C"}, "[2]": {"tested_on": "NC(=O)c1ccc[n+]([C@@H]2O[C@H](COP(=O)(O)OP(=O)(O)OC[C@H]3O[C@@H](n4cnc5c(N)ncnc54)[C@H](OP(=O)(O)O)[C@@H]3O)[C@@H](O)[C@H]2O)c1", "experiment": "purified protein", "conditions": "pH 7.5; 25.0 °C; varied: cofactor"}}, "data": [{"substance": "M. tb ICD-2 (Mycobacterium tuberculosis H37Rv)", "values": [{"measurement": "Km", "setting": "[1]", "value": "20 ± 1", "unit": "µM"}, {"measurement": "Vmax", "setting": "[1]", "value": 371.3, "unit": "μM NADPH/min"}, {"measurement": "Km", "setting": "[2]", "value": "19.6 ± 6", "unit": "µM"}, {"measurement": "Vmax", "setting": "[2]", "value": 374, "unit": "μM NADPH/min"}]}]}
